Measurements reported in patent publication US20220204592A1 (VISTERRA, published 2022).

How the values were obtained:
[1] = target: T1, H7 hemagglutinin (A/Netherlands/219/2003) (influenza A virus …); assay: ELISA on coated HA, relative Kd (4-parameter fit)
[2] = target: H5 hemagglutinin (A/Vietnam/1203/2004) (influenza A virus A/Vietnam/1203/2004 …); assay: ELISA on coated HA, relative Kd (4-parameter fit)
[3] = target: H9 hemagglutinin (A/Hong Kong/1073/99) (influenza A virus A/Hong Kong/1073/99 …); assay: ELISA on coated HA, relative Kd (4-parameter fit)
[4] = target: T2, H3 hemagglutinin (A/Brisbane/10/2007) (influenza A virus A/Brisbane/10/2007 …); assay: ELISA on coated HA, relative Kd (4-parameter fit)
[5] = target: H3 hemagglutinin of H3N2 strain X-31 (influenza A virus X-31 (H3N2), UniProt P03437 17-566); assay: cell-based or functional assay
[6] = target: T2, H3 hemagglutinin (A/Brisbane/10/2007); assay: cell-based or functional assay
[7] = target: T3, H3 hemagglutinin (A/Victoria/3/75) (influenza A virus A/Victoria/3/75 (H3N2), UniProt P03435 17-567); assay: cell-based or functional assay
[8] = target: H3 hemagglutinin (A/Panama/2007/99) (influenza A virus A/Panama/2007/99 …); assay: cell-based or functional assay
[9] = target: T3, H3 hemagglutinin (A/Victoria/3/75); assay: cell-based or functional assay; remark: listed apart in the source
[10] = target: T1, H7 hemagglutinin …

B1: Ab A18 (antibody, V domains shown)
VH: EVQLLESGGGLVKPGQSLKLSCAASGFTFTSYGMHWVRQPPGKGLEWVAVISYDGSYKYYADSVQGRFTISRDNSKNTLYLQMNSLRAEDTAVYYCAKDSRLRSLLYFEWLSQGYFNPWGAGTTLTVSS
VL: EIVMTQSPDSLAVSLGERATINCKSSQSVTYNYKNYLAWYQQKPGQPPKLLIYWASTRESGVPDRFSGSGSGTDFTLTISSLQAEDVAVYYCQQYYRTPPTFGGGTKLDIKG
- Kd [1]: 0.845 nM
- Kd [2]: 0.068 nM
- Kd [3]: 0.067 nM
- Kd [4]: 0.459 nM
- IC50 (qPCR quantification of X-31 viral RNA) [5]: < 10 mg/L
- IC50 (RT-PCR, neutralisation) [6]: ~7 mg/L
- IC50 (RT-PCR, neutralisation) [7]: 2 mg/L

B2: Ab 044 (antibody, V domains shown)
VH: B1 VH with E1Q, S7T, G33A, I51V, S56N, A121Q
VL: DIQMTQSPSSLSASVGDRVTITCRSSQSITFDYKNYLAWYQQKPGKAPKLLIYWGSYLESGVPSRFSGSGSGTDFTLTISSLQPEDFATYYCQQHYRTPPSFGQGTKVEIK
- EC50, Neutral Red (CPE inhibition) [8]: 11 mg/L
- EC50, Neutral Red (CPE inhibition) [9]: 4.9 mg/L

B3: Ab 028 (antibody, V domains shown)
VH: EVQLLESGGGLVKPGQSLKLSCAASGFTFSSYGMHWVRQPPGKGLEWVAVVSYDGSNKYYADSVQGRFTISRDNSKNTLYLQMNSLRAEDTAVYYCAKDTKLRSLLYFEWLSSGLLDYWGQGAMVTVSS
VL: EIVMTQSPDSLAVSLGERATINCKSSQSVTFDYKNYLAWYQQKPGQPPKLLIYWASTRESGVPDRFSGSGSGTDFTLTISSLQAEDVAVYYCQQYYRTPPTFGGGTKLDIK
- EC50 (read off the curve) [10]: ~7 mg/L

Substitutions are numbered along the chain they refer to.
